This passage reports Kd, koff and kon results from patent US20220204592A1 (VISTERRA, published 2022).

This assay addresses H1 hemagglutinin (A/California/07/09) (influenza A virus A/California/07/09 …).

B1: Ab 032 (antibody, V domains shown)
VH: QVQLLETGGGLVKPGQSLKLSCAASGFTFTSYAMHWVRQPPGKGLEWVAVVSYDGNYKYYADSVQGRFTISRDNSKNTLYLQMNSLRAEDTAVYYCAKDSRLRSLLYFEWLSQGYFNPWGQGTTLTVSS
VL: DIQMTQSPSSLSASVGDRVTITCRSSQSITFNYKNYLAWYQQKPGKAPKLLIYWGSYLESGVPSRFSGSGSGTDFTLTISSLQPEDFATYYCQQHYRTPPSFGQGTKVEIK
As usually defined, the Kd is a measure of binding affinity in units of concentration. Low readings indicate higher affinity, high ones lower affinity. For orientation: koff means the rate constant with which the complex falls apart. The kon is the rate constant with which the complex forms. Molecule B1 had a Kd of 16 pM, a koff of 2.45e-05 s⁻¹ and a kon of 1.55e+06 M⁻¹ s⁻¹.
